Results of unrelated studies side by side (data: NIAID ChemDB).

All rows: whole-cell or culture tests; agent: Coxsackie virus; method: cytopathic effect; endpoint: EC50

a–b is a range or a potency band. Conditions beyond the fields shown may differ between rows. ECn: concentration that inhibits the pathogen or its effect by n%. Blank or dashed fields: not listed here.

structure,strain or isolate,cell line,value
Nc1ncnc2c1ncn2[C@@H]1O[C@H](C=NO)[C@@H](O)[C@H]1O,Strain B4,VERO,>0.4 µg/mL
CO[C@H](CO)[C@@H](O)CCn1ccc(N)nc1=O,TYPE B4,VERO,>400 µg/mL
CCOC(=O)C1=CSc2nnc(-c3cn(-c4ccccc4)nc3-c3ccccc3)n2N=C1N,TYPE B4,HeLa,>16 µg/mL
CC1(CO)CCC(Cn2cnc3c(=O)[nH]cnc32)C1(C)C,TYPE B4,HeLa,>100 µg/mL
Cc1ccc(C(=O)CCCCOc2ccc(C3=NCC(C)O3)cc2Cl)s1,TYPE B2,VERO,4.51 µM
CS(=O)c1ccc(Cc2ccc(S(C)(=O)=O)cn2)cc1,TYPE A21,HeLa,>10 µg/mL
Nc1ncnc2c1ncn2[C@@H]1C=C(CO)[C@@H](O)[C@@H]1O,TYPE B4,HeLa,>400 µg/mL
Cc1cn([C@@H]2OC[C@H](CO)[C@H]2O)c(=O)[nH]c1=O,TYPE B4,VERO,>80 µg/mL
Nc1ccn([C@@H]2C[C@H](CO)[C@@H](O)[C@H]2O)c(=O)n1,TYPE B4,HeLa,>400 µg/mL
c1ccc(-c2nn3c(-c4cn(-c5ccccc5)nc4-c4ccccc4)nnc3s2)cc1,TYPE B4,VERO,>16 µg/mL
Cc1ccc(C(=O)CCCCOc2ccc(C3=N[C@H](C)CO3)cc2)s1,TYPE B5,VERO,9.24 µM
Cc1nn2c(-c3cn(-c4ccccc4)nc3-c3ccccc3)nnc2s1,TYPE B4,VERO,>3.2 µg/mL
Nc1ncnc2c1ncn2[C@@H]1C=C(CO)[C@@H](O)C1,TYPE B4,HeLa,>400 µg/mL
COc1ccc(OCc2ccc(COc3c(Cl)cccc3Cl)cc2)c(Cl)c1,GROUP A9,HeLa,0.09 µg/mL
CCN(CC)c1noc(-c2ccc(O)cc2O)c1Cc1c(N(CC)CC)noc1-c1ccc(OC)cc1O,ATCC VR28 (TYPE B1),VERO,>3.5 µM
CCOc1cc(O)c(C(=O)/C=C/c2ccc(OC)cc2)c(OC)c1,TYPE A21,HeLa,>3 µg/mL
COc1ccc(CCCOc2cc(C)c(-c3noc(C(F)(F)F)n3)c(C)c2)nn1,-,HeLa,0.033–0.659 µg/mL
Cc1ccc(-n2c(-c3ccccc3)c(C)c(=O)c3cc(C(C)C)ccc32)cc1,TYPE A7,HeLa S3,>2.5 µg/mL
Nn1c(SCC(=O)O)nnc1-c1cn(-c2ccccc2)nc1-c1ccccc1,TYPE B4,HeLa,>80 µg/mL
CC1(CO)CCC(Cn2ccc(=O)[nH]c2=O)C1(C)C,TYPE B4,HeLa,>200 µg/mL
Nc1ncnc2c1ncn2[C@H]1C[C@H](O)[C@@H](C=O)O1,Strain B4,VERO,>200 µg/mL
Nc1nccc2c1ncn2[C@@H]1C[C@H](CO)[C@@H](O)[C@H]1O,TYPE B4,VERO,2 µg/mL
Cc1nc(-c2cc(C)c(OCCCc3ccc(C(F)F)o3)c(C)c2)no1,-,HeLa,0.033–0.659 µg/mL
CO[C@H](CO)[C@@H](O)CCn1cnc2c(=O)[nH]c(N)nc21,TYPE B4,VERO,>400 µg/mL
CC1(CO)CCC(Cn2nnc3c(=O)[nH]cnc32)C1(C)C,TYPE B4,VERO,>400 µg/mL
OC[C@H]1O[C@@H](c2cc(/C=C/Br)c(F)cc2F)C[C@@H]1O,TYPE B4,VERO,>16 µg/mL
Nc1ncnc2c1ncn2[C@@H]1C=C(CO)[C@@H](O)[C@H]1O,TYPE B4,HeLa,≥40 µg/mL
NC1=CC(c2ccccc2)=Nn2c(nnc2-c2cn(-c3ccccc3)nc2-c2ccccc2)S1,TYPE B4,VERO,80 µg/mL
CCN(CC)c1cc(-c2ccc(O)cc2O)on1,ATCC VR28 (TYPE B1),VERO,12 µM
CCON=C[C@H]1O[C@@H](n2cnc3c(N)ncnc32)[C@H](O)[C@@H]1O,Strain B4,VERO,>100 µg/mL
Cc1cn([C@H]2C[C@H]([N+](=O)[O-])[C@@H](CO)O2)c(=O)[nH]c1=O,-,HeLa,>200 µg/mL
Nc1ncnc2c1ncn2[C@@H]1O[C@H](C=O)[C@@H](O)[C@H]1O,Strain B4,VERO,>200 µg/mL
CC=NC(=N)c1nc(-c2ccccc2)n(C/C=C/c2ccccc2)n1,TYPE B4,HeLa,>10 µg/mL
Cc1c(-c2ccccc2)n(C)c2cc(C(C)C)c(OC(C)C)cc2c1=O,TYPE B4/JVB,HeLa S3,>1.6 µg/mL
Nc1ncnc2c1ncn2[C@H]1OC[C@@H](CO)C1O,TYPE B4,HeLa,>80 µg/mL
Nc1ccn(CC[C@H](O)CCO)c(=O)n1,TYPE B4,VERO,>400 µg/mL
CS(=O)(=O)c1ccc(NCCc2ccc(Cl)cc2)nc1,TYPE A21,HeLa,>10 µg/mL
Cc1cc(CCCCCCCOc2ccc(C3=NCCO3)cc2)on1,TYPE B5,VERO,12.08 µM
CC(=O)c1ccc(CCCOc2c(C)cc(-c3noc(C(F)F)n3)cc2C)nn1,-,HeLa,0.033–0.659 µg/mL
CS(=O)(=O)c1ccc(NCc2ccc(Cl)c(Cl)c2)nc1,TYPE A21,HeLa,0.6 µg/mL
Cc1ccc(C(=O)CCCCOc2ccc(C3=NCCO3)cc2)s1,TYPE B5,VERO,7.28 µM
S=c1[nH]nc(-c2cn(-c3ccccc3)nc2-c2ccccc2)o1,TYPE B4,VERO,>16 µg/mL
CC(C)S(=O)(=O)c1ccc(Cc2ccc(Cl)c(Cl)c2)nc1,TYPE A21,HeLa,0.6 µg/mL
CC(C)CS[C@H]1C[C@@H](n2cnc3c(N)ncnc32)[C@H](O)[C@@H]1O,TYPE B4,HeLa,>80 µg/mL
Cc1cn([C@@H]2OC[C@H](CO)[C@H]2N=[N+]=[N-])c(=O)[nH]c1=O,TYPE B4,VERO,>80 µg/mL
COc1ccc(-c2cc(N(C)C)no2)c(O)c1,ATCC VR28 (TYPE B1),VERO,>427 µM
CCc1ccc(CCCOc2cc(C)c(-c3noc(C(F)F)n3)c(C)c2)nn1,-,HeLa,0.033–0.659 µg/mL
Nc1ncnc2c1ncn2C(CF)CCCO,TYPE B4,HeLa,>400 µg/mL
CS(=O)(=O)c1ccc(Oc2ccc(C(=O)c3ccccc3)cc2)nc1,A-9,MRC-5,0.3 µg/mL
CC=NC(=N)c1nc(-c2cccc(OC)c2)n(Cc2ccccc2)n1,TYPE B4,HeLa,>10 µg/mL
COc1ccc(C/C=C/Oc2cc(C)c(-c3noc(C(F)F)n3)c(C)c2)nn1,-,HeLa,0.033–0.659 µg/mL
OC[C@H]1O[C@H](c2cc(Cl)c(F)cc2F)C[C@@H]1O,TYPE B4,VERO,>80 µg/mL
COc1ccc(-n2c(-c3ccccc3)c(C)c(=O)c3cc(C(C)C)ccc32)cc1,TYPE A7,HeLa S3,>2.5 µg/mL
Cc1ccc(C(=O)CCCCCCOc2ccc(C3=NC(C)(C)CO3)cc2)s1,TYPE B5,VERO,>26.95 µM
CC[C@@H](O)C1=C[C@@H](n2cnc3c(N)ncnc32)[C@H](O)[C@@H]1O,TYPE B4,HeLa,>400 µg/mL
CN(C)c1cc(-c2ccc(O)cc2O)on1,ATCC VR28 (TYPE B1),VERO,55 µM
CCc1ccc(CCCOc2c(C)cc(-c3noc(C)n3)cc2C)nn1,-,HeLa,0.033–0.659 µg/mL
COC(=O)n1c(C(=O)NC(C)C)nc2ccccc21,TYPE B2,VERO,95 µM
Cc1ccc(C(=O)CCCCCCOc2ccc(C3=N[C@@H](C)CO3)cc2)s1,TYPE B5,VERO,>25.97 µM
CCc1nc(-c2ccc(OCCC(C)CCN3CCN(c4ccncc4)C3=O)cc2)no1,B3,RD,25 µM
CCCOc1ccc2c(c1)c(=O)c(C)c(-c1ccccc1)n2CC,TYPE B4/JVB,HeLa S3,>3.3 µg/mL
Nc1ncnc2c1ncn2C[C@H](O)CO,TYPE B4,VERO,100 µg/mL
CC=NC(=N)c1nc(-c2cccc(C)c2)n(COCCO)n1,TYPE B4,HeLa,>200 µg/mL
Nc1ccn(C(CF)CCCO)c(=O)n1,TYPE B4,HeLa,>400 µg/mL
CCS(=O)(=O)c1ccc(NCc2ccc(Cl)c(Cl)c2)nc1C#N,TYPE A21,HeLa,2.5 µg/mL
O=c1[nH]n2c(-c3cn(-c4ccccc4)nc3-c3ccccc3)nnc2s1,TYPE B4,VERO,>80 µg/mL
CC=NC(=N)c1nc(-c2cccc(OC)c2)n(COCCO)n1,TYPE B4,VERO,>100 µg/mL
S=c1[nH]n2c(-c3cn(-c4ccccc4)nc3-c3ccccc3)nnc2s1,TYPE B4,HeLa,>80 µg/mL
CO[C@H](CO)[C@@H](O)CCn1cnc2c(N)ncnc21,TYPE B4,VERO,>400 µg/mL

The last 9 rows once more:

structure	strain or isolate	cell line	value
CCCOc1ccc2c(c1)c(=O)c(C)c(-c1ccccc1)n2CC	TYPE B4/JVB	HeLa S3	>3.3 µg/mL
Nc1ncnc2c1ncn2C[C@H](O)CO	TYPE B4	VERO	100 µg/mL
CC=NC(=N)c1nc(-c2cccc(C)c2)n(COCCO)n1	TYPE B4	HeLa	>200 µg/mL
Nc1ccn(C(CF)CCCO)c(=O)n1	TYPE B4	HeLa	>400 µg/mL
CCS(=O)(=O)c1ccc(NCc2ccc(Cl)c(Cl)c2)nc1C#N	TYPE A21	HeLa	2.5 µg/mL
O=c1[nH]n2c(-c3cn(-c4ccccc4)nc3-c3ccccc3)nnc2s1	TYPE B4	VERO	>80 µg/mL
CC=NC(=N)c1nc(-c2cccc(OC)c2)n(COCCO)n1	TYPE B4	VERO	>100 µg/mL
S=c1[nH]n2c(-c3cn(-c4ccccc4)nc3-c3ccccc3)nnc2s1	TYPE B4	HeLa	>80 µg/mL
CO[C@H](CO)[C@@H](O)CCn1cnc2c(N)ncnc21	TYPE B4	VERO	>400 µg/mL